This assay has as its target CpOGA (Clostridium perfringens, UniProt Q0TR53). Description: CpOGA glycopeptide hydrolysis, substrate competition assay with 4MU-GlcNAc reporter. To be noted: read-out: Michaelis constant (KM) of glycopeptide substrate for CpOGA; competition with 4MU-GlcNAc reporter substrate; 37°C, 50 mM citrate-phosphate buffer pH 7.4, 0.1 mg/ml BSA; triplicate; ± error of curve-fit.

SMILES strings stand for the structures.

For the compound `CC(=O)N[C@H]1[C@H](OC[C@H](NC(=O)[C@H](Cc2c[nH]cn2)NC(=O)[C@H](C)NC(=O)[C@@H](NC(C)=O)C(C)C)C(=O)NCC(=O)N[C@@H](C)C(N)=O)O[C@H](CO)[C@@H](O)[C@@H]1O`, the Km was determined as 40 µM.
